From PubChem BioAssay AID588726 (The Scripps Research Institute Molecular Screening Center, 2011)
The list shows a part of the results, in another mix than the full data. Active and inactive are the calls of the source. Rule as the data show it: active = inhibition above about 27%; inactive = the rest.

By UniProt entry, the sequences of proteins in these tests, tags left out. Where a name states a change or a piece, a line headed by the entry shows the natural chain unless it says otherwise.
UniProt P9WQA3: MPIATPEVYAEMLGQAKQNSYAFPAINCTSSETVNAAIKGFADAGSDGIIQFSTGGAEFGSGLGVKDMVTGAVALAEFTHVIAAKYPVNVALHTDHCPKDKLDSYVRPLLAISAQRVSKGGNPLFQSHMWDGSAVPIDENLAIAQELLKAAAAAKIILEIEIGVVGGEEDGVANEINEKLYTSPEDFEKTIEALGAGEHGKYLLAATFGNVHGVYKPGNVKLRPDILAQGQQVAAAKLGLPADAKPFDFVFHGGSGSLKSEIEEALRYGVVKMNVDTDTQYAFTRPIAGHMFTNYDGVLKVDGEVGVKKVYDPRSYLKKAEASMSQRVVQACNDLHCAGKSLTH

Target: Fructose-bisphosphate aldolase (Mycobacterium tuberculosis (strain ATCC 25618 / H37Rv)) (UniProt P9WQA3)
Assay: M. tuberculosis aldolase activity blockers – biochemical, fluorescence, strain H37Rv, primary screen (AID 588726);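 also: 0% = vehicle and 100% = reference inhibitor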
Details: purified M. tuberculosis FBA, fluorescence read-out; at 1 µM; active compounds read high

Structure (SMILES) | inhibition
COP1(=S)c2c(C)nn(CCC#N)c2N=C(c2ccc(F)cc2)N1C (configuration not stated) | inactive: -5.07%
COC(=O)C1(C)COP(=O)(N2CCCC2)OC1 (configuration not stated) | inactive: 2.18%
O=C(COc1ccccc1)OC1CN2CCC1CC2 (configuration not stated) | inactive: -4.16%
O=C(Nc1ccncc1[N+](=O)[O-])c1ccc([N+](=O)[O-])cc1[N+](=O)[O-] | inactive: 0.17%
O=C(O)C(=O)c1ccc(N(CCCl)CCCl)cc1 | inactive: -1.97%
CCOC(=O)c1ccc(NC(=O)C(C)(CCl)SC)cc1 (configuration not stated) | inactive: 0.47%
O=C(OC1CN2CCC1CC2)c1cccc([N+](=O)[O-])c1 (configuration not stated) | inactive: -2.09%
CSc1ccc(Nc2c([N+](=O)[O-])cc([N+](=O)[O-])cc2[N+](=O)[O-])cc1 | inactive: -9.62%
CCC(C)N(CC(C)C)C(=S)SC(NC(C)=O)C(Cl)(Cl)Cl (configuration not stated) | inactive: -6.5%
CC1CCNP(=O)(N(CCCl)CCCl)O1 (configuration not stated) | inactive: 0.03%
CCOC(=O)Nc1ccc([As](=O)(O)O)c(O)c1 | inactive: 0.78%
O=C(O)C(O)c1ccc(N(CCCl)CCCl)cc1 (configuration not stated) | inactive: -0.61%
CCCCOc1ccc(C(=O)NCC2(N3CCCCC3)CCCCC2)cc1OC | inactive: 1.95%
Cc1cc(SC(NC(=O)c2ccccc2)C(Cl)(Cl)Cl)nc(C(C)C)n1 (configuration not stated) | inactive: 2.77%
COP(=O)(OC)N1CC1c1ccccc1 (configuration not stated) | inactive: 0.14%
CCOC(=O)Nc1cccc([As](=O)(O)O)c1 | inactive: 0.79%
O=[N+]([O-])c1ccc(Nc2ccc(Oc3ccc([N+](=O)[O-])cc3[N+](=O)[O-])cc2)c([N+](=O)[O-])c1 | inactive: -0.78%
O=P(Nc1ccccn1)(c1cccc2ccccc12)c1cccc2ccccc12 | inactive: -0.24%
Cc1cc(SC(NC=O)C(Cl)(Cl)Cl)ncn1 (configuration not stated) | inactive: -3.23%
O=[As](O)(c1ccc(O)cc1)c1ccccc1O | inactive: -5.7%
C[As](=O)(O)c1cccc(C(=O)O)c1 | inactive: 0.92%
O=[N+]([O-])c1ccc(-c2cc([N+](=O)[O-])c(O)c([N+](=O)[O-])c2)cc1 | inactive: -12.9%
COc1cc(C(=O)NCC2(N3CCOCC3)CCCCC2)ccc1OCC(C)C | inactive: 3.84%
Cc1ccc2nc3c(c(C)c2c1)CC(C(Cl)Cl)S3 (configuration not stated) | inactive: 0.62%
Cc1ccc(OP(=O)(Nc2ccc([N+](=O)[O-])cn2)Oc2ccc(C)cc2)cc1 | inactive: 0.04%
COC(=O)C1(C)COP(=O)(N2CCCCCC2)OC1 (configuration not stated) | inactive: -1.14%
CC(C)c1ccc(OP(=O)(Nc2ccccn2)Oc2ccccc2F)cc1 (configuration not stated) | inactive: 1.63%
